Assay [1] has as its target recombinant HIV-1 protease (Human immunodeficiency virus type 1 group M subtype B, UniProt P04585). The experiment in a line: HIV-1 Protease Enzyme Assay (Ki). As to conditions: read-out: Enzymatic assay Ki. In kind it is biochemical.
The target in assay [2] is 84V90M (Human immunodeficiency virus type 1 group M subtype B, UniProt P04585, I572V/L578M). As to the kind of experiment: Cell-based assay (MT-4) EC50, 84V90M. On the set-up: species or system HIV-1. As to conditions: read-out: Cell-based assay (MT-4) EC50/nM 84V90M; MT-4, 84V90M.
Assay [3] concerns mutant HIV-1 with I84V/L90M mutations. The experiment in a line: Resistance Evaluation, I84V/L90M fold change. The settings on record: fold difference in EC50 vs wild type, class symbols; tested form: TFA. The assay is classed as cell-based.
For assay [4], the system named is mutant HIV-1 with M46F/I47V/I50V mutations (I50V #1). As to the kind of experiment: Resistance Evaluation, I50V #1 fold change. The assay is classed as cell-based. The settings on record: fold difference in EC50 vs wild type, class symbols; tested form: TFA.

Structures are written as SMILES. Structures were worked out from names or drawings and are uncertain. Where only a bound is given, the exact number is not on record here.

A word on the Ki: it is the equilibrium dissociation constant of an inhibitor or competing ligand from its target. As for `CCOC(=O)C(C)OP(=O)(COc1ccc(C[C@@H]2[C@H](O)[C@@H](O)[C@@H](Cc3ccccc3)N(Cc3ccccc3)C(=O)N2Cc2ccccc2)cc1)Oc1ccccc1` (stereo partly shown), the inhibitory constant (Ki) in assay [1] was found to be 0.22 nM. In assay [2], the EC50 is above 6000 nM.
As to `CCOC(=O)[C@H](C)OP(=O)(CCNCc1ccc(C[C@H](NC(=O)O[C@H]2CO[C@H]3OCC[C@H]32)[C@H](O)CN(CC(C)C)S(=O)(=O)c2ccc(OC)cc2)cc1)Oc1ccccc1OCC` (stereo partly shown), the I84V/L90M fold change result in assay [3] was “− (≦3)”. In addition, in assay [4], the “I50V (#1) fold change” value is recorded as “− (≦3)”.

Values taken from patent US20070190523A1 (priority 2002, published 2007).
